Source: PubChem BioAssay AID504761 (Drosophila RNAi Screening Center, 2011)
Screen: 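Insect host genes that dengue virus relies on to spread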 (primary screen). System: D.Mel-2 cells from Drosophila. Reagent: long dsRNA against Drosophila genes. Challenge: infection with dengue virus type 2; dose and infection time not stated. Measured: 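Per well on two replicate plates, imaging gave the percent of cells positive for viral envelope protein, ranked by infection, and a nuclear count of cells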. Direction: infection score: higher = more virus-infected cells. Call rule: 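Low infection ranks in the two replicates (chance level up to 0.065) followed by a retest with a 1.5-fold or larger significant decrease, p below 0.05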. Calls: active = confirmed: knock-down lowers infection; inactive = not picked or not confirmed.
The deposit covers about 22,000 reagents; this is an unselected part of those with a known target gene and a result. In the full data, 116 (0.52%) got an active call. 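Calls depend on retest data that are not deposited; infection was ranked per plate without normalising between plates; the unit of the infection score is not given.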 A plus sign joins genes that one reagent is predicted to hit. Further read-outs or replicates are left out here. Not stated in the record: the amount of reagent, the time to read-out.

{"Target gene": "RpS5b", "dsRNA": "DRSC16173", "infection score, replicate 1": 10.9, "activity call": "inactive"}
{"Target gene": "CG7785", "dsRNA": "DRSC16311", "infection score, replicate 1": 3.67, "activity call": "inactive"}
{"Target gene": "CG15358", "dsRNA": "DRSC00388", "infection score, replicate 1": 21.6, "activity call": "inactive"}
{"Target gene": "fs(1)N", "dsRNA": "DRSC18578", "infection score, replicate 1": 4.72, "activity call": "inactive"}
{"Target gene": "PIG-U", "dsRNA": "DRSC02193", "infection score, replicate 1": 2.21, "activity call": "inactive"}
{"Target gene": "PIG-U", "dsRNA": "DRSC28900", "infection score, replicate 1": 11.3, "activity call": "inactive"}
{"Target gene": "CG8141", "dsRNA": "DRSC16387", "infection score, replicate 1": 3.16, "activity call": "inactive"}
{"Target gene": "chinmo", "dsRNA": "DRSC00485", "infection score, replicate 1": 2.19, "activity call": "inactive"}
{"Target gene": "chinmo", "dsRNA": "DRSC00509", "infection score, replicate 1": 7.65, "activity call": "inactive"}
{"Target gene": "chinmo", "dsRNA": "DRSC22413", "infection score, replicate 1": 1.07, "activity call": "inactive"}
{"Target gene": "chinmo", "dsRNA": "DRSC28547", "infection score, replicate 1": 16.9, "activity call": "inactive"}
{"Target gene": "CG1951", "dsRNA": "DRSC15403", "infection score, replicate 1": 1.6, "activity call": "inactive"}
{"Target gene": "CG30100 + CG42372", "dsRNA": "DRSC30025", "infection score, replicate 1": 9.71, "activity call": "inactive"}
{"Target gene": "Balat", "dsRNA": "DRSC06852", "infection score, replicate 1": 16.7, "activity call": "inactive"}
{"Target gene": "CG4835", "dsRNA": "DRSC10452", "infection score, replicate 1": 19.4, "activity call": "inactive"}
{"Target gene": "CG4835", "dsRNA": "DRSC23696", "infection score, replicate 1": 9.2, "activity call": "inactive"}
{"Target gene": "CG33309", "dsRNA": "DRSC01421", "infection score, replicate 1": 2.83, "activity call": "inactive"}
{"Target gene": "Cp7Fc", "dsRNA": "DRSC18035", "infection score, replicate 1": 0.36, "activity call": "inactive"}
{"Target gene": "Cp7Fc", "dsRNA": "DRSC27432", "infection score, replicate 1": 18.6, "activity call": "inactive"}
{"Target gene": "CG31157", "dsRNA": "DRSC21832", "infection score, replicate 1": 12.3, "activity call": "inactive"}
{"Target gene": "CG31157", "dsRNA": "DRSC29159", "infection score, replicate 1": 6.33, "activity call": "inactive"}

Individual results from above.
Under “activity call”, PIG-U [DRSC28900] shows inactive
For “infection score, replicate 1”, RpS5b [DRSC16173] reads 10.9
fs(1)N [DRSC18578], infection score, replicate 1 → 4.72
